Measured values from several laboratories, pooled; numbers as filed in NIAID ChemDB.

Shared fields: tests on isolated targets

ICn is the concentration giving n% inhibition. Inhibition is in % at the dose shown (toxicity tests: loss of growth or viability). Blank or dashed fields: not listed here. Two numbers with a dash give a range or band. Neighbouring rows are from separate reports.

structure | agent | dose | measure | target | strain or isolate | value
CCN(C(=O)N1C[C@H](C(=O)O)[C@H](N)[C@H]1CNC(C)=O)C(C)C | Influenza A virus |  | IC50 | Neuraminidase | A/TOKYO/67 | 4.4–69 µM
O=c1nc[nH]c(=O)c2c1ncn2[C@H]1O[C@@H](CO)[C@H](O)[C@@H]1O | Japanese encephalitis virus |  | IC50 | NTPase/helicase |  | >500 µM
CCCCN[C@@H]1CN(C(=O)N(C(C)C)C(C)C)C[C@@H]1C(=O)O | Influenza A virus |  | IC50 | Neuraminidase | A/TOKYO | >50 µM
COC(=O)C1CC(C(=O)O)NC1C(CC(C)C)NC(C)=O | Influenza A virus |  | IC50 | Neuraminidase | A/TOKYO/67 | 0.037 µM
CCCCCCCCCCCCCCCCCC(=O)OC[C@@H](COP(=O)(O)OCCNCCO[C@@]1(C(=O)O)O[C@@H]([C@H](O)[C@H](O)CO)[C@H](NC(C)=O)[C@@H](O)[C@H]1F)OC(=O)CCCCCCCCCCCCCCCCC | Influenza A virus |  | IC50 | Sialidase | H1N1 A/swine/Hokkaido/2/81 | 125 µM
CN[C@@H]1CN(C(=O)N(C(C)C)C(C)C)C[C@@H]1C(=O)O | Influenza A virus |  | IC50 | Neuraminidase | A/TOKYO | >50 µM
CCCCCCCCCCCCCCCCCC(=O)OC[C@@H](COP(=O)(O)OCCNCCO[C@@]1(C(=O)O)O[C@@H]([C@H](O)[C@H](O)CO)[C@H](NC(C)=O)[C@@H](O)[C@H]1F)OC(=O)CCCCCCCCCCCCCCCCC | Influenza A virus |  | IC50 | Sialidase | H5N3 A/DUCK/313/4/78 | 62.5 µM
CC(C)Oc1ccc(-c2nc3cc(C(=O)O)ccc3n2C2CCCCC2)cc1 | Poliovirus |  | IC50 | RNA-dependent RNA polymerase |  | >25 µM
CCN(C(=O)N1C[C@@H](N)[C@@H](C(=O)O)C1)C(C)C | Influenza A virus |  | IC50 | Neuraminidase | A/TOKYO/67 | 0.5–57 µM
Cc1cscc1-c1nc2cc(C(=O)O)ccc2n1C1CCCCC1 | Poliovirus |  | IC50 | RNA-dependent RNA polymerase |  | >25 µM
CCN(C(=O)N1C[C@H](N)[C@H](C(=O)O)C1)C(C)C | Influenza A virus |  | Ki | Neuraminidase | A/TOKYO/67 | 57 µM
O=C(N[C@H](C(=O)O)c1c[nH]c2ccc(O)cc12)c1ccc2c(c1)nc(-c1ccc(=O)[nH]c1)n2C1CCCCC1 | Poliovirus |  | IC50 | RNA-dependent RNA polymerase |  | >25 µM
CCCCCCCCCCCCC/C=C/[C@@H](O)[C@H](CO[C@@H]1O[C@H](CO)[C@H](O)[C@H](OS(=O)(=O)O)[C@H]1O)NC(=O)CCCCCCCCCCCCCCCCCCCCCCC | Influenza A virus | 200 µM | inhibition | Sialidase | H8N4 A/mallard/Alberta/7/87 | 71.8%
O=C(O)C(=O)Nc1ccc2[nH]cc(C[C@H](NC(=O)c3ccc4c(c3)nc(-c3ccoc3)n4C3CCCCC3)C(=O)O)c2c1 | Poliovirus |  | IC50 | RNA-dependent RNA polymerase |  | >25 µM
CNC(=O)N1CC(C(=O)O)C(N)C1CNC(C)=O | Influenza A virus |  | Ki | Neuraminidase | A/TOKYO/67 | 470 µM
O=C(N[C@@H](Cc1c[nH]c2ccc(O)cc12)C(=O)O)c1ccc2c(n1)nc(-c1ccoc1)n2C1CCCCC1 | Poliovirus |  | IC50 | RNA-dependent RNA polymerase |  | >25 µM
CC(N)C(=O)N[C@@H]1CN(C(=O)N(C(C)C)C(C)C)C[C@@H]1C(=O)O | Influenza A virus |  | IC50 | Neuraminidase | A/TOKYO | >50 µM
COc1ccc([C@H](C)NC(=O)c2ccc3c(c2)nc(-c2ccccn2)n3C2CCCCC2)cc1OC | Poliovirus |  | IC50 | RNA-dependent RNA polymerase |  | >25 µM
CC(C)N(CCCO)C(=O)N1CC(N)C(C(=O)O)C1 | Influenza A virus |  | Ki | Neuraminidase | A/TOKYO/67 | 0.5 µM
O=C(NC(Cc1ccc(O)cc1)c1ccccn1)c1ccc2c(c1)nc(-c1ccoc1)n2C1CCCCC1 | Poliovirus |  | IC50 | RNA-dependent RNA polymerase |  | >25 µM
CCN(C(=O)C1CC(C(=O)O)C(N)C1CNC(C)=O)C(C)C | Influenza A virus |  | IC50 | Neuraminidase | A/TOKYO/67 | 24 µM

The first 2 rows once more:

structure	agent	dose	measure	target	strain or isolate	value
CCN(C(=O)N1C[C@H](C(=O)O)[C@H](N)[C@H]1CNC(C)=O)C(C)C	Influenza A virus		IC50	Neuraminidase	A/TOKYO/67	4.4–69 µM
O=c1nc[nH]c(=O)c2c1ncn2[C@H]1O[C@@H](CO)[C@H](O)[C@@H]1O	Japanese encephalitis virus		IC50	NTPase/helicase		>500 µM